From publication PMC10222858 (Marine Drugs, 2023)

Sequences of proteins named here, by UniProt entry; tags and fusion partners are left off.
UniProt P04757, whole entry, looked up: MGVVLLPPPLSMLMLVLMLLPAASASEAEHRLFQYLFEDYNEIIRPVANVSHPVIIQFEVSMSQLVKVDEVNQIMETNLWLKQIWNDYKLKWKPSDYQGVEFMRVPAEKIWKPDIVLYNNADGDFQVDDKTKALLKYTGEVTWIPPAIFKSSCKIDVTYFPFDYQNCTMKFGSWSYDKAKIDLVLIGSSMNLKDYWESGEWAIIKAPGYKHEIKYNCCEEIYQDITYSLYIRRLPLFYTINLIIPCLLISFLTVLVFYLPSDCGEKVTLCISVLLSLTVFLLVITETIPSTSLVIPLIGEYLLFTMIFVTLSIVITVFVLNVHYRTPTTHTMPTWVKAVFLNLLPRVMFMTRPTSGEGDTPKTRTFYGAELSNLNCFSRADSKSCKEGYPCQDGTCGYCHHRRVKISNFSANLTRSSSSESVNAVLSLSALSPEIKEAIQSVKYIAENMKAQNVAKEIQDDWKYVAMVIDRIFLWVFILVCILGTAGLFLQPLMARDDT
UniProt P12392, whole entry, looked up: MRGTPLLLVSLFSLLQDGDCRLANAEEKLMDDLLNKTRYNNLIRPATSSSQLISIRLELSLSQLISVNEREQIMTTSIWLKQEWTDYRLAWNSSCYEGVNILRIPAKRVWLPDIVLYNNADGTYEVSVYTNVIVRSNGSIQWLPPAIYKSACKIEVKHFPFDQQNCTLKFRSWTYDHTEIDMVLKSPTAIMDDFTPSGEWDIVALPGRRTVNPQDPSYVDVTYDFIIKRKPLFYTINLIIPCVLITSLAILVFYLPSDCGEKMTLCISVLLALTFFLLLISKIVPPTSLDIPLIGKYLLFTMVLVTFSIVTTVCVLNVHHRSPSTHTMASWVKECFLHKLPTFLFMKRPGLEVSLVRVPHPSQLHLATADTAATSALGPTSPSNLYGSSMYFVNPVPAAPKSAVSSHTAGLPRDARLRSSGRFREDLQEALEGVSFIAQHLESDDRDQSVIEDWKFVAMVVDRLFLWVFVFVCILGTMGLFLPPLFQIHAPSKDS
UniProt P43143, whole entry, looked up: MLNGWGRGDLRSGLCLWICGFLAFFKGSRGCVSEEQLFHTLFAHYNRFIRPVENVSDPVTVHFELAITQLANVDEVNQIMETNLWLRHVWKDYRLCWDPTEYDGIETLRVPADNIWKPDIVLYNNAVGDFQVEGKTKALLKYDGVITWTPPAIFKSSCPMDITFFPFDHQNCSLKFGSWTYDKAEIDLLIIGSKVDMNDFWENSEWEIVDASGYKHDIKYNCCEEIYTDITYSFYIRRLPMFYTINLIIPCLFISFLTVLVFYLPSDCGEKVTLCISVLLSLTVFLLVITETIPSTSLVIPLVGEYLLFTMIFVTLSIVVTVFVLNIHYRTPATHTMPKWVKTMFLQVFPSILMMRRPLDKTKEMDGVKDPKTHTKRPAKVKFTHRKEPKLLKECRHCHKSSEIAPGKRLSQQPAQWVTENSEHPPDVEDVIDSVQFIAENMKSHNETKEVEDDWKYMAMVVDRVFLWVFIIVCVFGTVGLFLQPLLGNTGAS

Molecular target: rα6/α3β4 nAChRs (Rattus norvegicus, UniProt P04757+P12392+P43143)
Test: Two-electrode voltage clamp on Xenopus oocytes expressing rα6/α3β4 nAChRs
Format: cell-based
Settings: oocyte voltage clamp, 100 μM ACh, compared with WT-TxID

Row | Structure (SMILES) | inhibition of rα6/α3β4 nAChRs in words
1 | CC[C@H](C)[C@@H]1NC(=O)[C@@H]2CCCN2C(=O)[C@H](CCSC)NC(=O)[C@H](C)NC(=O)[C@H](CO)NC(=O)[C@@H]2CSSC[C@H](NC(=O)CN)C(=O)N[C@@H](CSSC[C@@H](C(N)=O)NC1=O)C(=O)N[C@@H](CO)C(=O)N[C@@H](Cc1c[nH]cn1)C(=O)N1CCC[C@H]1C(=O)N[C@@H](C(C)C)C(=O)N2 | no significant blocking effect
2 | CC[C@H](C)[C@@H]1NC(=O)[C@@H]2CCCN2C(=O)[C@H](CO)NC(=O)[C@H](C)NC(=O)[C@H](CO)NC(=O)[C@@H]2CSSC[C@H](NC(=O)CN)C(=O)N[C@@H](CSSC[C@@H](C(N)=O)NC1=O)C(=O)N[C@@H](CO)C(=O)N[C@@H](Cc1c[nH]cn1)C(=O)N1CCC[C@H]1C(=O)N[C@@H](C(C)C)C(=O)N2 | no significant blocking effect
